Reference: PubChem BioAssay AID624099 (ICCB-Longwood, 2012)
In all, the deposit lists about 21,000 reagents; this is a random part of them. 497 of all reagents (2.4%) were called active. 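Higher z means weaker E2 silencing; only reporter increases were scored, and knock-downs that hurt cell survival may mask genuine repressor factors.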 Entries without a mark were called inactive. No sequences are given here.

Test: 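Knock-downs relieving repression by E2 of an HPV18 LCR luciferase reporter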 (primary screen)
System: human C33A cervical carcinoma cells (HPV-negative) stably expressing BPV1 E2 and an HPV18 LCR luciferase reporter
Knock-down reagent: siRNA pool against human genes, 40 nM
Timing: 72 h
Detection: 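Per-well luciferase luminescence, z-scored on each plate against the plate mean and SD with control wells left out, then averaged across three replicate plates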
Direction: mean z-score and z-score: higher = stronger reporter signal, weaker E2 silencing
Rule for the call: 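Hit if mean z-score reaches 2 and two or more of three replicate z-scores also reach 2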

gene knocked down | mean z-score | z-score, replicate A | z-score, replicate B | z-score, replicate C
TIAM1-AS1 | 0.16 | 0.04 | 0.11 | 0.32
TSBP1 | 0.71 | 0.68 | 0.53 | 0.91
RNF150 | 0.18 | 0.1 | 0.45 | -0.02
SEC22B | 1.12 | 0.89 | 1.38 | 1.1
C21orf91 | -0.18 | -0.16 | -0.27 | -0.1
B9D2 | 0.13 | -0.06 | -0.01 | 0.46
CASTOR3P | 0.49 | 0.49 | 0.25 | 0.74
GABRA2 | -0.1 | -0.25 | -0.06 | 0.02
PGR | 3.92 (active) | 3.78 | 3.92 | 4.05
BRSK2 | 0.17 | 0.03 | -0.13 | 0.59
CSTF3 | 0.68 | 0.45 | 0.69 | 0.89
IL1R2 | 1.49 | 1.48 | 1.49 | 1.52
MICB | 0.27 | 0.23 | 0.41 | 0.16
LOC340228 (retired record) | -0.37 | -0.4 | -0.44 | -0.25
C15orf61 | 0.51 | 0.47 | 0.73 | 0.33
CNTD1 | -1.49 | -1.82 | -1.1 | -1.55
EGR1 | -0.76 | -0.63 | -1.03 | -0.61
LOC440318 (retired record) | 0.13 | 0.3 | 0.16 | -0.07
IL24 | -1.03 | -1.04 | -0.94 | -1.12
SGSM2 | 0.23 | 0.2 | 0.38 | 0.1
NSMAF | 0.28 | 0.18 | 0.23 | 0.44
DMBT1L1 | -0.44 | -0.54 | -0.4 | -0.37
OTOG | -0.14 | -0.06 | -0.1 | -0.25
NBN | 1.17 | 1.32 | 0.77 | 1.42
ZNF493 | 0.91 | 0.82 | 0.73 | 1.18
UBD | -0.51 | -0.2 | -0.61 | -0.72
CCDC136 | 0.41 | 0.44 | 0.47 | 0.31
INTS6 | 1.9 | 2.08 | 2.19 | 1.42
SEC16B | -0.44 | -0.55 | -0.27 | -0.51
PDE6C | 0.18 | 0.14 | 0.45 | -0.04
FBXO33 | 0.12 | 0.29 | 0.12 | -0.05
OLFM1 | -0.42 | -0.41 | -0.64 | -0.2
RNF123 | 0.17 | 0.36 | -0.02 | 0.18
NUAK2 | 0.4 | 0.62 | 0.35 | 0.21
SCTR | -0.11 | -0.13 | -0.34 | 0.15
GPC1 | 0.13 | 0.1 | 0.11 | 0.17
OR7E5P | 1.11 | 1.08 | 1.52 | 0.73
VWA5B2 | 0.81 | 1.07 | 0.43 | 0.93
SNAPIN | 2.05 (active) | 2.15 | 1.97 | 2.04

Entries above called active, once more:
gene knocked down | mean z-score | z-score, replicate A | z-score, replicate B | z-score, replicate C
PGR | 3.92 (active) | 3.78 | 3.92 | 4.05
SNAPIN | 2.05 (active) | 2.15 | 1.97 | 2.04
